Measured values from several laboratories, pooled; numbers as filed in NIAID ChemDB.

All rows: growth or infection tests; species: Candida albicans; read-out: inhibition

Neighbouring rows are from separate reports. Inhibition is in % at the dose shown (toxicity tests: loss of growth or viability).

CCC(c1ccc(Cl)cc1)C(c1ccc(OC)cc1)n1ccnc1 ; tested at: 256 µg/mL ; strain: 28 strains ; value: 100%
O=C(Cn1ccnc1)c1ccc(F)cc1F ; tested at: 100 µg/mL ; strain: Fluconazole-resistant ; method: broth dilution ; value: 81%
COc1ccc(C(Cc2ccc(Cl)cc2Cl)C(c2ccc(OC)cc2)n2cncn2)cc1 ; tested at: 256 µg/mL ; strain: 28 strains ; value: 0%
Cc1c(C(=O)O)c(-c2ccc(Br)cc2)cn1-c1ccc(Br)cc1 ; tested at: 12.29 µg/mL ; strain: 40 strains ; value: 2.5%
NCCCC[C@H](NC(=O)[C@H](Cc1c[nH]c2ccccc12)NC(=O)[C@H](CCCCN)NC(=O)[C@@H](N)CCCCN)C(=O)O ; tested at: 25 µM ; strain: ATCC 10231 ; value: 0%
CC(C)(O)c1cn(-c2cccc3ccccc23)nn1 ; tested at: 2048 µg/mL ; strain: URM 3719 ; method: broth dilution ; value: 0%
CCC(c1ccc(Cl)cc1)C(O)c1ccc(OC)cc1 ; tested at: 256 µg/mL ; strain: 28 strains ; value: 0%
CCCCCCCCn1c(-c2ccc([N+](=O)[O-])cc2)cc(C(=O)N(CCO)CCO)c1C ; tested at: 200 µg/mL ; strain: 20 strains ; value: 0%
CC(C)(O)c1cn(-c2ccc([N+](=O)[O-])cc2)nn1 ; tested at: 2048 µg/mL ; strain: URM 4819 ; method: broth dilution ; value: 0%
OC(Cn1cncn1)c1ccc(F)cc1F ; tested at: 80 µg/mL ; strain: Fluconazole-resistant ; method: broth dilution ; value: 24%
Cc1ccc(-c2cn(-c3ccc(Cl)cc3)c(C)c2C(=O)O)cc1 ; tested at: 36.5 µg/mL ; strain: 40 strains ; value: 65%
O=C(Cn1cncn1)c1ccc([N+](=O)[O-])cc1 ; tested at: 80 µg/mL ; strain: Fluconazole-resistant ; method: broth dilution ; value: 16%
COc1ccc(C(Cc2ccc(Cl)cc2)n2cncn2)cc1 ; tested at: 256 µg/mL ; strain: 28 strains ; value: 100%
C[C@H]1[C@H](O)[C@@H](C)/C=C/C=C/C=C/C=C/C=C/C=C/C=C/[C@H](O[C@@H]2O[C@H](C)[C@@H](O)[C@H](N)[C@@H]2O)C[C@@H]2O[C@](O)(C[C@@H](O)C[C@@H](O)CC[C@H](O)[C@@H](O)C[C@@H](O)CC(=O)O[C@H]1C)C[C@H](O)[C@H]2C(=O)O ; tested at: 1 µg/mL ; strain: sap10 ; method: broth dilution ; value: 100%
CCC(c1ccc(OC)cc1)C(c1ccc(OC)cc1)n1cncn1 ; tested at: 256 µg/mL ; strain: 28 strains ; value: 18%
CCCCCCn1c(-c2ccc([N+](=O)[O-])cc2)cc(C(=O)N(CCO)CCO)c1C ; tested at: 200 µg/mL ; strain: 20 strains ; value: 0%
CCC(C(=O)c1ccc(OC)cc1)c1ccc(Cl)cc1 ; tested at: 256 µg/mL ; strain: 28 strains ; value: 0%
Cc1c(C(=O)O)c(-c2ccc(F)cc2)cn1-c1ccc(Br)cc1 ; tested at: 16.77 µg/mL ; strain: 40 strains ; value: 2.5%
CC(C)(O)c1cn(-c2ccc3ccccc3c2)nn1 ; tested at: 2048 µg/mL ; strain: URM 4817 ; method: broth dilution ; value: 0%
Cc1c(C(=O)O)c(-c2ccc(F)cc2)cn1-c1ccc(F)cc1 ; tested at: 41.67 µg/mL ; strain: 40 strains ; value: 2.5%
CC1(C)O[C@H]2[C@H](O)[C@@H](N=[N+]=[N-])C=C(c3ccc(C=O)cc3)[C@H]2O1 ; tested at: 125 µg/mL ; strain: ATCC 10231 ; method: broth dilution / turbidity ; value: 100%
Cc1cc(C=Nc2ccc(N=Cc3cc(C)cc(/C=N/Nc4nc5ccccc5s4)c3O)cc2)c(O)c(/C=C/Nc2nc3ccccc3s2)c1 ; tested at: 5 µg/mL ; method: turbidity ; value: 0.36%
COc1ccc(C(=O)Cc2ccc(Cl)cc2)cc1 ; tested at: 256 µg/mL ; strain: 28 strains ; value: 0%
CCCCCCn1c(-c2ccc([N+](=O)[O-])cc2)cc(C(=O)N2CCN(C)CC2)c1C ; tested at: 200 µg/mL ; strain: 20 strains ; value: 0%
Cc1c(C(=O)O)c(-c2ccc(Cl)cc2)cn1-c1ccc(Br)cc1 ; tested at: 24.85 µg/mL ; strain: 40 strains ; value: 2.5%
Cc1c(C(=O)N(CCO)CCO)cc(-c2ccc([N+](=O)[O-])cc2)n1Cc1ccccc1 ; tested at: 200 µg/mL ; strain: 20 strains ; value: 0%
C[C@H]1[C@H](O)[C@@H](C)/C=C/C=C/C=C/C=C/C=C/C=C/C=C/[C@H](O[C@@H]2O[C@H](C)[C@@H](O)[C@H](N)[C@@H]2O)C[C@@H]2O[C@](O)(C[C@@H](O)C[C@@H](O)CC[C@H](O)[C@@H](O)C[C@@H](O)CC(=O)O[C@H]1C)C[C@H](O)[C@H]2C(=O)O ; mutations: efg1 ; tested at: 1 µg/mL ; strain: ATCC 90028 ; method: broth dilution ; value: 100%
Cc1c(C(=O)O)c(-c2ccc(Cl)cc2)cn1-c1ccc(F)cc1 ; tested at: 83.33 µg/mL ; strain: 40 strains ; value: 10%

Again, the opening 2 rows:

CCC(c1ccc(Cl)cc1)C(c1ccc(OC)cc1)n1ccnc1 ; tested at: 256 µg/mL ; strain: 28 strains ; value: 100%
O=C(Cn1ccnc1)c1ccc(F)cc1F ; tested at: 100 µg/mL ; strain: Fluconazole-resistant ; method: broth dilution ; value: 81%